This is a selection; strong and weak results do not stand in their true shares. Results filed as inconclusive are left out. Activity calls are given as the source filed them. Calls come from the whole dose curve; as a rule, active = well fitted inhibition curve with a large enough effect; inconclusive = small, poorly fitted or top-dose-only effect, or another doubt; inactive = no such curve, though single readings can be large or run the other way.
What follows are compounds tested against Vitamin D3 receptor (Homo sapiens) (UniProt P11473) (assay: Inhibitors of the vitamin D receptor (VDR): qHTS). Details: VDR-SRC2-3 peptide fluorescence polarization, 2 h.
Potency is the fitted concentration of half-maximal effect.

By UniProt entry, the sequences of proteins in these tests, tags left out.
UniProt P11473, whole entry: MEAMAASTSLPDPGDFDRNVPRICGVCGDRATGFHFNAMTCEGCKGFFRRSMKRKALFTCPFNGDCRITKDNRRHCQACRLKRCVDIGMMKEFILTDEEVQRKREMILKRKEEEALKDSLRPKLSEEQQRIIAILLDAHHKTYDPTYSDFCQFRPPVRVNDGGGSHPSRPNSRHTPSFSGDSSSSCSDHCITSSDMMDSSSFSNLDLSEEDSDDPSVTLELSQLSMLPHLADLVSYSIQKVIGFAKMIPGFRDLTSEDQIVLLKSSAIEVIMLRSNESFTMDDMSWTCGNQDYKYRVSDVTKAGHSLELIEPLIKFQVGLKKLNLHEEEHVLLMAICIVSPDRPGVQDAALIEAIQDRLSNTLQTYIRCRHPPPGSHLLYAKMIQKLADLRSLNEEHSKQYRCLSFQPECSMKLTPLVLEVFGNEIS

Row | Structure (SMILES) | Potency
1 | COc1ccc2cc([S+]([O-])Cc3ncc(C)c(OC)c3C)nc2c1 | active: 50.1 µM

Source: PubChem BioAssay AID504847 (National Center for Advancing Translational Sciences (NCATS), 2011)
